## Potato spindle tuber viroid, loop 6: variant abundance in plants

Values reported by Wu et al. 2024 (doi:10.1371/journal.ppat.1012142).

PSTVd intermediate strain, loop 6: wild type UGACCGCGAG, pool pattern UNNNCGNNNG; upper and lower strand joined, each 5' to 3', the first 5 letters being the upper strand, closing pairs included.

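Three N. benthamiana plants were inoculated with the whole mutant pool. Samples came from the inoculated region at 5 days, the leaf margin at 10 and upper systemic leaves at 12.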

Numbers give reads per thousand; 0 = not seen among the reads, higher = more abundant. Each site shows the three plants. "Pool" is the share in the plasmid pool used as inoculum, on the same scale. The inoculated region was read from the minus strand, the other sites from the plus strand. Wild type was 20.7 per thousand in the pool and the most common sequence in every sample (inoculated region 195, 198, 203; leaf margin 629, 591, 734; systemic leaves 942, 870, 868).

UAAACGUAAG (pool 0.105): inoculated region 0.521 / 0.790 / 0.609; leaf margin 0.0552 / 0.126 / 0.0928; systemic leaves 0 / 0 / 0.0410.
UAAGCGGUAG (pool 0.431): inoculated region 0.0869 / 0.108 / 0.129; leaf margin 0.331 / 0 / 0; systemic leaves 0 / 0 / 0.0410.
UACACGCUAG (pool 0.105): inoculated region 0.660 / 0.539 / 0.609; leaf margin 0.138 / 0.0504 / 0.0464; systemic leaves 0.0180 / 0.0202 / 0.0410.
UACCCGCACG (pool 0.209): inoculated region 0.678 / 0.521 / 0.590; leaf margin 0.221 / 0.0504 / 0.0232; systemic leaves 0 / 0 / 0.
UACGCGCACG (pool 0.196): inoculated region 0.104 / 0.0898 / 0.0553; leaf margin 0 / 0 / 0; systemic leaves 0 / 0 / 0.
UAUCCGCGUG (pool 0.157): inoculated region 0.174 / 0.0898 / 0.0922; leaf margin 0 / 0.0252 / 0; systemic leaves 0 / 0 / 0.
UCACCGGUGG (pool 0.196): inoculated region 0.122 / 0.126 / 0.0738; leaf margin 0 / 0 / 0.0232; systemic leaves 0 / 0 / 0.
UCCACGGCAG (pool 0.183): inoculated region 0.104 / 0.0359 / 0.0738; leaf margin 0 / 0 / 0.0232; systemic leaves 0 / 0 / 0.
UCCCCGGACG (pool 0.261): inoculated region 0.104 / 0.126 / 0.0369; leaf margin 0 / 0.101 / 0.0232; systemic leaves 0 / 0 / 0.
UCCCCGGUAG (pool 0.275): inoculated region 0.174 / 0.0719 / 0.0553; leaf margin 0.0276 / 0 / 0.0696; systemic leaves 0 / 0 / 0.
UCCUCGCGGG (pool 0.144): inoculated region 0.156 / 0.0539 / 0.0922; leaf margin 0 / 0 / 0; systemic leaves 0 / 0 / 0.
UCGGCGGUCG (pool 0.248): inoculated region 0.0695 / 0.0539 / 0.0922; leaf margin 0 / 0 / 0.0232; systemic leaves 0 / 0 / 0.
UCGUCGCCAG (pool 0.131): inoculated region 0.122 / 0.0719 / 0.0369; leaf margin 0 / 0 / 0; systemic leaves 0 / 0 / 0.
UCUACGUAUG (pool 0.301): inoculated region 0.104 / 0.0898 / 0.0922; leaf margin 2.57 / 0.0252 / 0.0696; systemic leaves 0 / 0 / 0.
UCUUCGCCCG (pool 0.275): inoculated region 0.139 / 0.126 / 0.0922; leaf margin 0 / 0 / 0; systemic leaves 0 / 0 / 0.
UCUUCGGCGG (pool 0.275): inoculated region 0.0869 / 0.144 / 0.111; leaf margin 0.0276 / 0 / 0; systemic leaves 0 / 0 / 0.
UCUUCGUUUG (pool 0.301): inoculated region 0.122 / 0.0719 / 0.0369; leaf margin 0.0552 / 0 / 0; systemic leaves 0 / 0 / 0.
UGACCGCCAG (pool 0.0915): inoculated region 0.0869 / 0.0719 / 0.184; leaf margin 0.166 / 0.404 / 0.139; systemic leaves 0.0539 / 0.101 / 0.144.
UGCCCGUUCG (pool 0.144): inoculated region 0.0869 / 0.0719 / 0.166; leaf margin 0.0552 / 0 / 0; systemic leaves 0 / 0 / 0.
UGCGCGCUAG (pool 0.105): inoculated region 0.139 / 0.0898 / 0.111; leaf margin 0 / 0 / 0.0464; systemic leaves 0 / 0 / 0.
UGGGCGAACG (pool 0.183): inoculated region 0.156 / 0.0359 / 0.0922; leaf margin 0 / 0 / 0; systemic leaves 0 / 0 / 0.
UGUACGAUAG (pool 0.340): inoculated region 0.0869 / 0.162 / 0.0922; leaf margin 0 / 0 / 0.0696; systemic leaves 0 / 0 / 0.
UGUACGGUUG (pool 0.301): inoculated region 0.0521 / 0.126 / 0.0922; leaf margin 0 / 0 / 0.0232; systemic leaves 0 / 0 / 0.
UGUCCGAUGG (pool 0.196): inoculated region 0.139 / 0.0898 / 0.111; leaf margin 0 / 0 / 0; systemic leaves 0 / 0 / 0.
UUAACGUCCG (pool 0.261): inoculated region 0.608 / 0.503 / 0.572; leaf margin 0.0552 / 0.126 / 0.139; systemic leaves 0.0180 / 0.0808 / 0.0410.
UUACCGCGAG (pool 0.222): inoculated region 14.5 / 19.6 / 19.1; leaf margin 8.48 / 1.54 / 0.325; systemic leaves 6.77 / 13.9 / 13.8.
UUCCCGUUUG (pool 0.301): inoculated region 0.122 / 0.144 / 0.129; leaf margin 0 / 0 / 0; systemic leaves 0 / 0 / 0.0205.
UUGACGGGAG (pool 0.131): inoculated region 0.938 / 0.719 / 0.535; leaf margin 0.166 / 0.101 / 0.0696; systemic leaves 0.0359 / 0.0606 / 0.0205.
UUGCCGUCCG (pool 0.288): inoculated region 0.139 / 0.0898 / 0.0922; leaf margin 0 / 0.151 / 0.0232; systemic leaves 0 / 0 / 0.
UUGUCGGAGA (pool 0.0131): inoculated region 0 / 0 / 0; leaf margin 0 / 0 / 0; systemic leaves 0 / 0 / 0.
UUUCCGAAGG (pool 0.105): inoculated region 0.156 / 0.108 / 0.111; leaf margin 0 / 0 / 0; systemic leaves 0 / 0 / 0.
UUUGCGGGUG (pool 0.196): inoculated region 0.0695 / 0.108 / 0.0553; leaf margin 0 / 0 / 0; systemic leaves 0 / 0 / 0.

Extract of 3 entries:

UGCCCGUUCG (pool 0.144): inoculated region 0.0869 / 0.0719 / 0.166; leaf margin 0.0552 / 0 / 0; systemic leaves 0 / 0 / 0.
UGUACGAUAG (pool 0.340): inoculated region 0.0869 / 0.162 / 0.0922; leaf margin 0 / 0 / 0.0696; systemic leaves 0 / 0 / 0.
UUAACGUCCG (pool 0.261): inoculated region 0.608 / 0.503 / 0.572; leaf margin 0.0552 / 0.126 / 0.139; systemic leaves 0.0180 / 0.0808 / 0.0410.

Sequences that differ at fixed positions probably stem from PCR or sequencing errors, and defective variants can be carried along by functional ones. With 36,220-57,551 reads a sample, very low values are single reads.